Experimental data taken from the supplement of paper PMC9931576.
Human monoclonal antibodies against the spike receptor-binding domain (heavy:light variable regions). IC50 against pseudoviruses bearing the spike of naturally observed variants; lower = stronger; >10 µg/ml means not reached at the top dose. No active / inactive call. The stated detection limit is 0.0005 µg/ml; values near or below 0.001 µg/ml lie at the floor of the assay.

B1: BD58-0464 (protein)
chain 1: EVQLVQSGAEVKKPGESLKISCKGSGYSFTIYWIGWVRQMPGKGLEWMGIIYPGDADTRYSPSFQGQVIISADKSTSTAYLQWNSLKASDTAMYYCARHYASGSYTTVLDYWGQGTLVTVSS
chain 2: QSVLTQPPSVSAAPGQKVTISCSGSTSNIGNNYVSWYQQLPETAPKLLIYDNNKRPSGIPDRFSGSKSGTSATLVITGLQTGDEADYYCGTWDSSLSAGGVFGGGTKLTVL
B2: BD58-0438 (protein)
chain 1: EVQLVQSGAEVKKPGESLKISCKVSAYSFTSYWIGWVRQMPGKGLEWMGIIYPGDSDTRYSPSFRGQVTISADKSISTSYLQWSSLKASDTAMYYCARMLWFGDAAHMDVWGQGTTVTVSS
chain 2: QSALTQPASVSGSPGQSITISCTGTSSDVGAHDYVSWYQQHPGKAPKLMIYDVSNRPSGVSNRFSGSKSGNTASLTISGLQAEDEADYYCSSYTSSSTLWVFGGGTKLTVL
B3: BD57-0106 (protein)
chain 1: EVQLVESGGGLVQPGRSLRLSCAASGFKYDDFAMYWVRQAPGKGLEWVSGISWNSGSIAYADSVEGRFTISRDNAKNSLYLQMNSLRPEDTALYYCAKEFRDCSRTSCYEGVGYYFDYWGQGTLVTVSS
chain 2: QLVLTQSPSASASLGASVKLTCTLSSGHTNYAIAWHQQQPEKGPRYLMKVNSDGSHSKGDGIPDRFSGSSSGSERYLTISSLQSEDEADYYCQTWVTGLVVFGGGTKLTVL
B4: BD57-0325 (protein)
chain 1: QLQLQESGPGLVKPSETLPLTCTVSGNSISSSSYFWGWIRQPPGKGLEWIGSTYYSGRTDYNPSLKSRVTISVDTSKNQFSLKLSSVTAADTAVYYCARLSIYSSNWHYFDHWGQGTLVTVSS
chain 2: QSVLTQPPSVSGAPGQRVTISCTGSSSNIGAGYDVHWYQQLPGTAPKLLIYGNNNRPSAVPDRFSGSNSGTSASLAITGLQAEDEADYYCQSYDTSLSGFWVFGGGTKLTVL
B5: BD57-0305 (protein)
chain 1: EVQLVESGGGVVRPGGSLRLSCAASGFSFGDYGMNWVRQAPGKGLEWVSAINWNGGSTGYADSVKGRFTISRDNAKNSLYLQMNSLRAEDTALYYCARNMVPRLPLYYFDYWGQGTLVTVSS
chain 2: NFMLTQPHSVSESPGKTVTISCTGSSGSIASNYVQWYQQRPGSAPTTVIYEDNQRPSGVPDRFSGSIDSSSNSASLTISGLKTEDEADYYCQSYQSSTVVFGGGTKLTVL
B6: BD58-0401 (protein)
chain 1: QITLKESGPTLVKPTQTLTLTCTFSGFSLSTSGVGVGWIRQPPGKALEWLALIYWDDDKRYSPSLKSRLTITKDTSKNQVVLTMTNMDPVDTATYYCAQLQYCGGDCYPFDYWGQGTLVTVSS
chain 2: not shown
B7: BD56-301 (protein)
chain 1: QVQLVQSGAEVKKPGASVKVSCKVSGYTLTELSMHWVRQAPGKGLEWMGGFDPEGAETIYAQNFQGRVTMTEDTSTDTAYMELSSLRSEDTAVFYCATVPPGATRSYVFDIWGQGTMVTVSS
chain 2: DIQMTQSPSSVSASVGDRVTITCRASQGISSWLAWYQQKPGKAPKLLIYAASNLQSGVPSRFSGSESGTDFTLTISSLQPEDFATYYCHQANSFPHTFGQGTKVEIK
B8: BD58-0538 (protein)
chain 1: EVQLVQSGAEVKKPGESLKISCRVSGYDFDSYWIGWVRQTPGKGLEWMGIVYPDDSDTRHSPSFHGQVIVSADKSISTAYLQWKSLKASDTAIYYCARHRGRTYSGTLDYWGLGTPVIVSS
chain 2: DIQMTQSPSSLSASVGNRVTITCRASQDIGNSLNWYQQKSGRAPKLLISDASNLETGVTSRFSGSGSGRDFTFTISSLQPEDIATYYCQHYGNLPFTFGPGTKVDIK
B9: BD57-0246 (protein)
chain 1: EVQLVQSGAEVKKPGESLKISCKGSGYSFTSYWIAWVRQMPGKGLEWMGIIYPGDSDTRYSPSFQGQVTISADKSISTAYLQWSSLKASDTAMYYCARSMSEDAFDIWGQGTMVTVSS
chain 2: SYVLTQPPSVSVAPGKTARITCGGNNFGSKSVHWYQQKPGQAPVLVIYYDSDRPSGIPERFSGSNSGNTATLTISRVEAGDEADYYCQVWDSSSDHPNVFGTGTKVTVL
B10: BD57-0114 (protein)
chain 1: QITLKESGPTLVKPTQTLTLTCTFSGFSLSTSGVGVGWIRQPPGKALEWLALIYWDDDKRYSPSLKSRLTITKDTSKNQVVLTMTNMDPVDTATYYCAHRRDRNDYDSSGYYHYWGQGTLVTVSS
chain 2: EIVMTQSPATLSVSPGERATLSCRASQSVSSNLAWYQQKPGQAPRLLIYGASTRATGIPARFSGSGSGTEFTLTISSLQSEDFAVYYCQQYDNWPPITFGQGTRLEIK

How the values were obtained:
Assay in all cases: pseudovirus neutralization IC50; higher = weaker neutralization
[1] = molecular target: SARS-CoV-2 Omicron BA.1 spike pseudovirus
Procedure: (§1)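 Single-round VSV luciferase pseudovirus mixed with antibody dilutions for 1 h and put on Huh-7 cells for about a day; IC50 from the dose curve.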

[2] = molecular target: SARS-CoV-2 Omicron BA.2 spike pseudovirus
Procedure: as §1

[3] = molecular target: SARS-CoV-2 Omicron BA.2.75 spike pseudovirus
Procedure: as §1

[4] = molecular target: SARS-CoV-2 Omicron BA.2.75.2 spike pseudovirus
Procedure: as §1

[5] = molecular target: SARS-CoV-2 Omicron BA.5 spike pseudovirus
Procedure: as §1

[6] = molecular target: SARS-CoV-2 Omicron BM.1.1.1 spike pseudovirus
Procedure: as §1

[7] = molecular target: SARS-CoV-2 Omicron BQ.1.1 spike pseudovirus
Procedure: as §1

[8] = molecular target: SARS-CoV-2 Omicron BR.2 spike pseudovirus
Procedure: as §1

[9] = molecular target: SARS-CoV-2 Omicron CA.1 spike pseudovirus
Procedure: as §1

[10] = molecular target: SARS-CoV-2 Omicron XBB spike pseudovirus
Procedure: as §1

[11] = molecular target: SARS-CoV-2 early D614G spike pseudovirus
Procedure: as §1

Binder | pseudovirus neutralization IC50 [1] [µg/mL] | pseudovirus neutralization IC50 [2] [µg/mL] | pseudovirus neutralization IC50 [3] [µg/mL] | pseudovirus neutralization IC50 [4] [µg/mL] | pseudovirus neutralization IC50 [5] [µg/mL] | pseudovirus neutralization IC50 [6] [µg/mL] | pseudovirus neutralization IC50 [7] [µg/mL] | pseudovirus neutralization IC50 [8] [µg/mL] | pseudovirus neutralization IC50 [9] [µg/mL] | pseudovirus neutralization IC50 [10] [µg/mL] | pseudovirus neutralization IC50 [11] [µg/mL]
B1 | > 10 | > 10 | > 10 | > 10 | > 10 | > 10 | > 10 | > 10 | > 10 | > 10 | > 10
B2 | > 10 | > 10 | > 10 | > 10 | > 10 | > 10 | > 10 | > 10 | > 10 | > 10 | > 10
B3 | > 10 | > 10 | > 10 | > 10 | > 10 | > 10 | > 10 | > 10 | > 10 | > 10 | > 10
B4 | > 10 | 0.878 | 0.00527 | 0.0056 | 0.000751 | 0.00859 | 0.00247 | 0.00669 | 0.00536 | 0.00594 | > 10
B5 | 2.34 | 1.29 | 1.11 | 0.914 | 0.629 | > 10 | 1.38 | > 10 | > 10 | > 10 | > 10
B6 | > 10 | > 10 | > 10 | > 10 | > 10 | > 10 | > 10 | > 10 | > 10 | > 10 | > 10
B7 | 0.0821 | > 10 | > 10 | > 10 | > 10 | > 10 | > 10 | > 10 | > 10 | > 10 | > 10
B8 | > 10 | > 10 | > 10 | > 10 | > 10 | > 10 | > 10 | > 10 | > 10 | > 10 | > 10
B9 | > 10 | 0.511 | > 10 | > 10 | 0.389 | > 10 | > 10 | > 10 | > 10 | > 10 | > 10
B10 | 2.34 | 0.281 | 1.5 | 0.933 | 0.157 | > 10 | 0.751 | > 10 | > 10 | > 10 | > 10
